For assay [1], the target named is eOD-GT6. As to the kind of experiment: SPR. A general note: Surface plasmon resonance follows binding to a sensor surface in real time, without labels.
Assay [2] addresses eOD-GT6. The assay is described as follows: SPR. This is another data set of the same source.

B1: VRC01gl Fab with Q39LH (Fab, V domains shown)
VH: not shown
VL: EIVLTQSPATLSLSPGERATLSCRASQSVSSYLAWYQQKPGQAPRLLIYDASNRATGIPARFSGSGSGTDFTLTISSLEPEDFAVYYCQQYEFFGQGTKLEIK
Usually Kd stands for the free concentration of one partner at which half of the binding sites on the other are occupied at equilibrium, for simple one-to-one binding. Lower therefore signals a tighter complex. By koff is commonly meant a measure of how fast the partners let go of each other. Higher therefore signals fast dissociation. In the assay with eOD-GT6 [1], B1 had an equilibrium dissociation constant (Kd) of 11.7 nM. Besides, the dissociation rate constant (koff) with eOD-GT6 [2] worked out at 0.000581 s⁻¹.

B2: VRC01gl Fab with Q39LH and comL (Fab, V domains shown)
VH: not shown
VL: EIVLTQSPATLSLSPGERATLSCRASQSVSSYLAWYQQKPGQAPRLLIYDASNRATGIPARFSGSGSGTDFTLTISSLEPEDFAVYYCQQYEFFGQGTKVQVDI
In the assay with eOD-GT6 [1], B2 gave a Kd of 3.81 nM. Further, in the assay with eOD-GT6 [2], the off-rate (koff) worked out at 0.000247 s⁻¹.

The values are drawn from paper PMC8761896 (2021).
